Results deposited as PubChem BioAssay AID624099 (ICCB-Longwood, 2012).

Purpose: 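Human genes that papillomavirus E2 requires to repress the HPV18 LCR promoter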 (primary screen)
System: human C33A cervical carcinoma cells (HPV-negative) stably expressing BPV1 E2 and an HPV18 LCR luciferase reporter
Reagents: siRNA pool against human genes, 40 nM
Timing: 72 h
Measurement: 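HPV18 LCR reporter light per well, converted to plate-wise z-scores that exclude control wells, and averaged over triplicate plates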
Direction: mean z-score and z-score: higher = stronger reporter signal, weaker E2 silencing
Hit rule: 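Mean z ≥ 2 together with z ≥ 2 in two or more of the three replicates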
The whole screen tested about 21,000 reagents; this is an unselected part. In the full data, 497 (2.4%) got an active call. 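Higher z means weaker E2 silencing; only reporter increases were scored, and knock-downs that hurt cell survival may mask genuine repressor factors.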 Entries without a mark were called inactive. No sequences are given here.

MIMS1 (GeneID 125228): mean z-score = 0.32; z-score, replicate A = 0.23; z-score, replicate B = 0.37; z-score, replicate C = 0.35
TAGAP (GeneID 117289): mean z-score = -1.04; z-score, replicate A = -1.23; z-score, replicate B = -0.97; z-score, replicate C = -0.93
LOC391088 (retired record) (GeneID 391088): mean z-score = -0.74; z-score, replicate A = -0.61; z-score, replicate B = -1.13; z-score, replicate C = -0.48
LOC389150 (retired record) (GeneID 389150): mean z-score = -1.93; z-score, replicate A = -1.64; z-score, replicate B = -1.85; z-score, replicate C = -2.3
GPR84 (GeneID 53831): mean z-score = -1.09; z-score, replicate A = -1.13; z-score, replicate B = -1; z-score, replicate C = -1.15
ADI1 (GeneID 55256): mean z-score = -1.16; z-score, replicate A = -1.22; z-score, replicate B = -1.02; z-score, replicate C = -1.24
HNF1A (GeneID 6927): mean z-score = 0.41; z-score, replicate A = 0.37; z-score, replicate B = 0.27; z-score, replicate C = 0.59
EPHA5 (GeneID 2044): mean z-score = 0.13; z-score, replicate A = 0.59; z-score, replicate B = 0.17; z-score, replicate C = -0.38
HERC4 (GeneID 26091): mean z-score = 0.93; z-score, replicate A = 0.88; z-score, replicate B = 0.92; z-score, replicate C = 0.99
GALNT4 (GeneID 8693): mean z-score = -0.57; z-score, replicate A = -0.82; z-score, replicate B = -0.66; z-score, replicate C = -0.21
FBN1 (GeneID 2200): mean z-score = -0.22; z-score, replicate A = -0.14; z-score, replicate B = -0.26; z-score, replicate C = -0.27
FGFBP2 (GeneID 83888): mean z-score = -0.22; z-score, replicate A = -0.2; z-score, replicate B = -0.13; z-score, replicate C = -0.32
CHAF1B (GeneID 8208): mean z-score = 1.75; z-score, replicate A = 2.18; z-score, replicate B = 1.74; z-score, replicate C = 1.33
SSU72L5 (GeneID 196120): mean z-score = 0.86; z-score, replicate A = 1.07; z-score, replicate B = 0.81; z-score, replicate C = 0.68
KNL1 (GeneID 57082): mean z-score = 0.5; z-score, replicate A = 0.45; z-score, replicate B = 0.57; z-score, replicate C = 0.48
MOCS3 (GeneID 27304): mean z-score = -1.17; z-score, replicate A = -1.18; z-score, replicate B = -1.45; z-score, replicate C = -0.87
EXOSC1 (GeneID 51013): mean z-score = -0.44; z-score, replicate A = 0.01; z-score, replicate B = -0.72; z-score, replicate C = -0.6
PPP1R14A (GeneID 94274): mean z-score = 0.56; z-score, replicate A = 0.48; z-score, replicate B = 0.7; z-score, replicate C = 0.48
ABHD5 (GeneID 51099): mean z-score = 1.74; z-score, replicate A = 1.8; z-score, replicate B = 1.93; z-score, replicate C = 1.47
LOC389237 (retired record) (GeneID 389237): mean z-score = -0.99; z-score, replicate A = -1.27; z-score, replicate B = -1.09; z-score, replicate C = -0.59
CILP (GeneID 8483): mean z-score = 0.09; z-score, replicate A = 0.53; z-score, replicate B = 0.2; z-score, replicate C = -0.47

Reformatted: results already given.
gene knocked down,mean z-score,"z-score, replicate A","z-score, replicate B","z-score, replicate C"
LOC389150 (retired record) (GeneID 389150),-1.93,-1.64,-1.85,-2.3
GPR84 (GeneID 53831),-1.09,-1.13,-1,-1.15
ADI1 (GeneID 55256),-1.16,-1.22,-1.02,-1.24
